{"source": "PubChem BioAssay AID624099 (ICCB-Longwood, 2012)", "aim": "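Human genes that papillomavirus E2 requires to repress the HPV18 LCR promoter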 (primary screen)", "cells": "human C33A cervical carcinoma cells (HPV-negative) stably expressing BPV1 E2 and an HPV18 LCR luciferase reporter", "knock-down reagent": "siRNA pool against human genes, 40 nM", "duration": "72 h", "measurement": "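HPV18 LCR reporter light per well, converted to plate-wise z-scores that exclude control wells, and averaged over triplicate plates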", "reading the numbers": "mean z-score and z-score: higher = stronger reporter signal, weaker E2 silencing", "call rule": "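Hit if mean z-score reaches 2 and two or more of three replicate z-scores also reach 2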", "note": "Here is a random part of about 21,000 deposited reagents. Over the whole deposit, 497 (2.4%) are marked active. 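Higher z means weaker E2 silencing; only reporter increases were scored, and knock-downs that hurt cell survival may mask genuine repressor factors.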 Unmarked entries are inactive. No sequences are given here."}
{"target gene": "LOC653303 (proprotein convertase subtilisin/kexin type 7 pseudogene)", "PubChem SID": "SID134326586", "mean z-score": 0.91, "z-score, replicate A": 0.91, "z-score, replicate B": 0.73, "z-score, replicate C": 1.08}
{"target gene": "YPLR6490 (retired record)", "PubChem SID": "SID134327317", "mean z-score": -0.56, "z-score, replicate A": -0.85, "z-score, replicate B": -0.22, "z-score, replicate C": -0.6}
{"target gene": "PPP1R14B (protein phosphatase 1 regulatory inhibitor subunit 14B)", "PubChem SID": "SID134326593", "mean z-score": -0.43, "z-score, replicate A": -0.14, "z-score, replicate B": -0.54, "z-score, replicate C": -0.6}
{"target gene": "NLRC5 (NLR family CARD domain containing 5)", "PubChem SID": "SID134322139", "mean z-score": -0.68, "z-score, replicate A": -0.82, "z-score, replicate B": -0.81, "z-score, replicate C": -0.41}
{"target gene": "FABP5P10 (fatty acid binding protein 5 pseudogene 10)", "PubChem SID": "SID134325621", "mean z-score": -1.04, "z-score, replicate A": -0.86, "z-score, replicate B": -1.19, "z-score, replicate C": -1.07}
{"target gene": "PPP1R9B (protein phosphatase 1 regulatory subunit 9B)", "PubChem SID": "SID134319017", "mean z-score": -0.56, "z-score, replicate A": -0.55, "z-score, replicate B": -0.47, "z-score, replicate C": -0.67}
{"target gene": "ACAP2 (ArfGAP with coiled-coil, ankyrin repeat and PH domains 2)", "PubChem SID": "SID134317063", "mean z-score": 0.79, "z-score, replicate A": 0.57, "z-score, replicate B": 0.92, "z-score, replicate C": 0.9}
{"target gene": "BAGE4 (BAGE family member 4)", "PubChem SID": "SID134322450", "mean z-score": -0.48, "z-score, replicate A": -0.8, "z-score, replicate B": -0.34, "z-score, replicate C": -0.31}
{"target gene": "LOC388763 (retired record)", "PubChem SID": "SID134327117", "mean z-score": -0.76, "z-score, replicate A": -0.36, "z-score, replicate B": -1.1, "z-score, replicate C": -0.81}
{"target gene": "FCRL2 (Fc receptor like 2)", "PubChem SID": "SID134320480", "mean z-score": -3.09, "z-score, replicate A": -3.16, "z-score, replicate B": -3.05, "z-score, replicate C": -3.07}
{"target gene": "CACNA2D1", "PubChem SID": "SID134323936", "mean z-score": -0.08, "z-score, replicate A": 0.17, "z-score, replicate B": -0.19, "z-score, replicate C": -0.23}
{"target gene": "ARC (activity regulated cytoskeleton associated protein)", "PubChem SID": "SID134319712", "mean z-score": 0.07, "z-score, replicate A": 0.2, "z-score, replicate B": -0.37, "z-score, replicate C": 0.39}
{"target gene": "NFYB (nuclear transcription factor Y subunit beta)", "PubChem SID": "SID134314658", "mean z-score": 0.83, "z-score, replicate A": 1.05, "z-score, replicate B": 0.86, "z-score, replicate C": 0.58}
{"target gene": "PXT1 (peroxisomal testis enriched protein 1)", "PubChem SID": "SID134320906", "mean z-score": 1.49, "z-score, replicate A": 1.46, "z-score, replicate B": 1.52, "z-score, replicate C": 1.13}
{"target gene": "MAFK (MAF bZIP transcription factor K)", "PubChem SID": "SID134313447", "mean z-score": 1.02, "z-score, replicate A": 0.82, "z-score, replicate B": 0.8, "z-score, replicate C": 1.45}
{"target gene": "KRTAP12-1 (keratin associated protein 12-1)", "PubChem SID": "SID134322676", "mean z-score": -0.25, "z-score, replicate A": 0.08, "z-score, replicate B": -0.55, "z-score, replicate C": -0.27}
{"target gene": "ELK4 (ETS transcription factor ELK4)", "PubChem SID": "SID134314888", "mean z-score": 0.71, "z-score, replicate A": 0.86, "z-score, replicate B": 0.43, "z-score, replicate C": 0.85}
{"target gene": "ZNF649 (zinc finger protein 649)", "PubChem SID": "SID134312180", "mean z-score": -0.79, "z-score, replicate A": -0.53, "z-score, replicate B": -1.01, "z-score, replicate C": -0.83}
{"target gene": "ATIC", "PubChem SID": "SID134313172", "mean z-score": 0.74, "z-score, replicate A": 0.62, "z-score, replicate B": 0.81, "z-score, replicate C": 0.79}
{"target gene": "EVL (Enah/Vasp-like)", "PubChem SID": "SID134324509", "mean z-score": -1.12, "z-score, replicate A": -0.84, "z-score, replicate B": -1.24, "z-score, replicate C": -1.29}
{"target gene": "PGM3 (phosphoglucomutase 3)", "PubChem SID": "SID134318108", "mean z-score": -1.15, "z-score, replicate A": -1.19, "z-score, replicate B": -0.89, "z-score, replicate C": -1.37}
